Compound potency records, mixed from different reports. Data source: NIAID ChemDB in PubChem.

Shared fields: target-level tests; organism: HIV-1; target: Protease; endpoint: inhibition

Percent inhibition refers to the dose given; in toxicity tests it is the harm to the cells. Rows are shuffled and stem from different studies. An empty or dashed field is not shown.

| compound | dose | read by | result |
|---|---|---|---|
| COc1ccc(C2C3(CO)C4N(C(C)=O)C5C2(CO)C2N(C(C)=O)C3C4(CO)C(c3ccc(OC)cc3)C52CO)cc1 | 25 µM | absorbance | 7% |
| CCOC(=O)[C@H](CC(C)C)NC(=O)[C@H](Cc1ccccc1)NC(=O)[C@H](O)[C@H](Cc1ccccc1)NC(=O)OC(C)(C)C | 70 µM | HPLC | 0% |
| CC(=O)N[C@H](C(=O)N[C@@H](CC(C)C)C(=O)N[C@@H](CC(N)=O)C(=O)N[C@@H](Cc1ccccc1)C(=O)O)[C@@H](C)O | 800 µg/mL | HPLC | 40% |
| COc1ccc(C2C3(CO)C4N(C(=O)Cc5ccccc5)C5C2(CO)C2N(C(=O)Cc6ccccc6)C3C4(CO)C(c3ccc(OC)cc3)C52CO)cc1 | 50 µM | absorbance | 18% |
| CC(C)(C)NC(=O)[C@@H]1CSCN1C(=O)[C@@H](O)[C@H](Cc1ccccc1)NC(=O)[C@H](CS(C)(=O)=O)NC(=O)COc1cccc(C(=O)N2CCOCC2)c1 | 0.05 µM |  | 55.5% |
| COC(=O)N1C2C3(CO)C(c4ccccc4)C4(CO)C1C1(CO)C(c5ccccc5)C2(CO)C3N(C(=O)OC)C41 | 50 µM | absorbance | 9% |
| COC(=O)[C@H](CC(C)C)N1C[C@@H]2O[C@H](C1=O)[C@H](C(=O)N1CCOCC1)O2 | 10 µM | FRET | 0% |
| NC(=O)C[C@H](NC(=O)COc1cccc2ccccc12)C(=O)N[C@@H](Cc1ccccc1)[C@H](O)C(=O)N1CSC[C@H]1C(=O)NC1CC1 | 0.05 µM |  | 89.5% |
| COc1ccc2[nH]c(=O)c(CN(C(=O)c3ccccc3)C3CCCCC3)cc2c1 | 20 µM | substrate cleavage / fluorescence | -33.1% |
| C#CCNC(=O)[C@@H]1O[C@]2(c3ccccc3)CN(C(c3ccccc3)c3ccccc3)C(=O)[C@H]1O2 | 10 µM | FRET | 0% |
| CC[C@@H](C)[C@H](NC(=O)[C@@H]1CCCN1C(=O)[C@@H](O)[C@H](CC1CCCCC1)NC(=O)[C@H](CC(N)=O)NC(=O)c1cccs1)C(=O)N[C@H](C(N)=O)C(C)C | 5 µM |  | 95.1% |
| CCCNC(=O)[C@@H]1O[C@]2(c3ccccc3)CN(C(c3ccccc3)c3ccccc3)C(=O)[C@H]1O2 | 10 µM | FRET | 0% |
| Cc1cc(C)[n+](C[n+]2[nH]c(C)cc2C)[nH]1.[Cl-].[Cl][Au-]([Cl])([Cl])[Cl] | 25 µM | substrate cleavage | 14.7% |
| CC[C@@H](C)[C@H](NC(=O)[C@H](CCC(N)=O)NC(=O)[C@@H]1CCCN1C(=O)[C@@H](O)[C@H](Cc1ccccc1)NC(=O)[C@H](CC(N)=O)NC(=O)CCc1ccccc1)C(N)=O | 5 µM |  | 38% |
| CC(C)C[C@H](NC(=O)[C@@H](N)[C@@H](C)O)C(=O)N[C@@H](CC(N)=O)C(=O)N[C@@H](Cc1ccccc1)C(=O)O | 266 µg/mL | HPLC | 41% |
| CC(C)(C)NC(=O)[C@@H]1CSCN1C(=O)[C@@H](O)[C@H](Cc1ccccc1)NC(=O)[C@H](CS(C)(=O)=O)NC(=O)COc1cccc(C(=O)N2CCCCC2)c1 | 0.05 µM |  | 74.6% |
| COc1cccc2cc(CN(C(=O)c3ccccc3)C3CCCC3)c(=O)[nH]c12 | 20 µM | substrate cleavage / fluorescence | 6.3% |
| COC(=O)[C@@H](NC(=O)C[C@@H]1CC[C@@H](O)[C@@H]1NC(=O)[C@H](Cc1ccccc1)NC(=O)OC(C)(C)C)C(C)C | 10 µM | absorbance | 25% |
| O=C(c1ccccc1)N(Cc1cc2ccccc2[nH]c1=O)C1CCCC1 | 20 µM | substrate cleavage / fluorescence | -3.2% |
| COC(=O)[C@@H](NC(=O)C[C@@H]1CC[C@H](NC(=O)[C@H](C)NC(=O)OC(C)(C)C)[C@H]1O)C(C)C | 10 µM | absorbance | 0% |
| CC[C@H](C)[C@H](NC(=O)[C@H](CCC(N)=O)NC(=O)[C@@H]1CCCN1C(C)=O)C(=O)N[C@H](C(=O)N[C@@H](CC(C)C)C(=O)O)[C@@H](C)O | 266 µg/mL | HPLC | 3% |
| COC(=O)[C@H](CC(C)C)N1C[C@@H]2O[C@H](C1=O)[C@H](C(=O)N1CCCCC1)O2 | 10 µM | FRET | 0% |
| COc1c(O)cc(O)c2c1OC(c1ccccc1)CC2=O | 1000 µg/mL | substrate cleavage / fluorescence | 64.8% |
| CC(C)[C@H](NC(=O)[C@@H]1CCCN1C(=O)[C@H](O)[C@H](Cc1ccccc1)NC(=O)OC(C)(C)C)C(=O)NCC1CCCCC1 | 1000 µM |  | 52.6% |
| O=c1[nH]c2ccccc2cc1CNC1CC1 | 20 µM | substrate cleavage / fluorescence | -4.5% |
| CC(C)(C)NC(=O)[C@H]1N(C(=O)[C@@H](O)[C@H](Cc2ccccc2)NC(=O)[C@H](CC(N)=O)NC(=O)OCc2ccccc2)CSC1(C)C | 0.05 µM |  | 96.2% |
| COc1ccc(C2C3(CO)C4N(C(=O)Oc5ccccc5)C5C2(CO)C2N(C(=O)Oc6ccccc6)C3C4(CO)C(c3ccc(OC)cc3)C52CO)cc1 | 50 µM | absorbance | 18% |
| COC(=O)[C@@H](NC(=O)C[C@H]1CC[C@H](O)[C@H]1NC(=O)[C@H](C)NC(=O)OC(C)(C)C)C(C)C | 10 µM | absorbance | 0% |
| CC(=O)N1C2C3(CO)C(c4ccccc4)C4(CO)C1C1(CO)C(c5ccccc5)C2(CO)C3N(C(C)=O)C41 | 50 µM | absorbance | 6% |
| CC(C)C[C@H](NC(=O)[C@@H](N)[C@@H](C)O)C(=O)N[C@@H](CC(N)=O)C(=O)N[C@@H](Cc1ccccc1)C(N)=O | 266 µg/mL | HPLC | 5% |
| O=C(c1ccccc1)N(Cc1cc2ccccc2[nH]c1=O)C1CC1 | 20 µM | substrate cleavage / fluorescence | -21.1% |
| CC[C@H](C)[C@H](NC(=O)OC(C)(C)C)C(=O)N[C@H]1[C@@H](CC(=O)N[C@H](C(=O)OC)C(C)C)CC[C@@H]1O | 10 µM | absorbance | 18% |
| COc1cccc2cc(CNC3CCCCC3)c(=O)[nH]c12 | 20 µM | substrate cleavage / fluorescence | -7.7% |
| O=c1cc(-c2ccc(O)cc2)oc2cc(O)c(O)c(O)c12 | 1000 µg/mL | substrate cleavage / fluorescence | 100% |
| CC(=O)N[C@H](C(=O)N[C@@H](CC(C)C)C(=O)N[C@@H](CC(N)=O)C(=O)N[C@@H](Cc1ccccc1)C(N)=O)[C@@H](C)O | 800 µg/mL | HPLC | 29% |

For reference, 2 entries again:

compound | dose | read by | result
O=C(c1ccccc1)N(Cc1cc2ccccc2[nH]c1=O)C1CCCC1 | 20 µM | substrate cleavage / fluorescence | -3.2%
COc1ccc(C2C3(CO)C4N(C(=O)Oc5ccccc5)C5C2(CO)C2N(C(=O)Oc6ccccc6)C3C4(CO)C(c3ccc(OC)cc3)C52CO)cc1 | 50 µM | absorbance | 18%